From publication PMC10235760

How the values were obtained:
[1] = molecular target: SARS-CoV-2 receptor binding domain, omicron subvariant BA5 (RBDBA5) (SARS-CoV-2) (UniProt P0DTC2); test: SPR
[2] = molecular target: SARS-CoV-2 receptor binding domain, wild type (RBD_(D614G)) (SARS-CoV-2) (UniProt P0DTC2); test: SPR

## antibody 10-40
[1]
  Kd: 0.266 nM
  koff: 0.000212 s⁻¹
[2]
  Kd: 0.0143 nM
  koff: 4.23e-05 s⁻¹
